Data: US11771694B2, “Arylamide compounds for treatment and prevention of viral infections” (priority 2020, dated 2023)

Experiment: Serial passage assay for bacterial resistance
Details: compared to daptomycin

## N=C(N)NCCCCC(=O)Nc1cc(C(F)(F)F)cc(NC(=O)c2cc(C(=O)Nc3cc(C(F)(F)F)cc(NC(=O)CCCCNC(=N)N)c3OC3CCNC3)ncn2)c1OC1CCNC1 (stereo not shown) [brilacidin]
  risk for developing bacterial resistance: low risk for developing bacterial resistance
